Species on record: Mus musculus
Assay: Antagonist activity at mouse alpha1beta1deltaepsilon nACHR expressed in Xenopus laevis oocytes assessed as inhibition of acetyl choline-induced membrane currents at 10 uM pre-incubated for 5 mins prior to acetyl choline pulse at -70 mV potential by two-electrode voltage clamp assay

In the case of CC[C@H](C)[C@@H]1NC(=O)[C@@H]2CCCN2C(=O)[C@H](CO)NC(=O)[C@H](CCSC)NC(=O)[C@H](C)NC(=O)[C@H](CCCCN)NC(=O)[C@@H]2CSSC[C@H](NC(=O)CN)C(=O)N[C@@H](CSSC[C@@H](C(N)=O)NC1=O)C(=O)N[C@@H](CO)C(=O)N[C@@H](Cc1cnc[nH]1)C(=O)N1CCC[C@H]1C(=O)N[C@@H](C(C)C)C(=O)N2, the inhibition is reported as < 50%.

— ChEMBL document CHEMBL4196223 (J Med Chem, 2018)
